# Values quoted from earlier work in publication PMC7449170, “ATI-2173, a Novel Liver-Targeted Non-Chain-Terminating Nucleotide for Hepatitis B Virus Cure Regimens” (Antimicrobial Agents and Chemotherapy, 2020).
# System: clevudine-resistant mutants
# Conditions: mutants from viral break-through patients, predominantly M204I; cited from earlier work
smiles,measurement,value
Nc1ncnc2c1ncn2CCOCP(=O)(O)O [Adefovir],Activity against clevudine-resistant mutants,active
